# In US11229224B2, “Phytochemical compositions used as disinfectants and food preservatives” (priority 2012, dated 2022):
# Legend:
# [1] = test system: L. monocytogenes, E. coli O157:H7 and S. montevideo; conditions: vapor generated by 400 μl AITC after 4 and 2 days; cited from earlier work
# E. coli O157:H7 = assay: Diffusion technique, inhibition zone on agar; conditions: 1:10 dilution of aqueous hibiscus extract, 10 μL on plate, 35±1° C., 24 h
Compound,decrease on lettuce [1],Inhibition diameter (E. coli O157:H7)
C=CCN=C=S [AITC],8 Log,
penicillin,,15 mm
